Assay results as given in ChEMBL document CHEMBL3046315, “Synthesis and Fungicidal Activity of New Thiophosphorylated Monoterpenoids and Related Compounds” (1996).

Experiments:
Athelia rolfsii = test: Fungicidal activity against Athelia rolfsii assessed as growth inhibition at 100 ppm after 5 days by agar dilution test
Pythium = test: Fungicidal activity against Pythium sp. assessed as growth inhibition at 100 ppm after 5 days by agar dilution test

## CC(C)=CCCC(C)CCOP(=S)(OCCC(C)CCC=C(C)C)c1ccccc1 (configuration not stated)
Athelia rolfsii
  growth inhibition (GI): 5.1%
Pythium
  growth inhibition (GI): 11.4%

Some compounds may have been tested in ways that are not shown here.
